Compound potency records, mixed from different reports. Data source: NIAID ChemDB in PubChem.

Shared fields: tests on isolated targets; organism: HIV-1; target: Reverse transcriptase; read by: RT activity / radiometric; endpoint: inhibition; tested at: 200 µg/mL

Conditions beyond the fields shown may differ between rows. Percent inhibition refers to the dose given; in toxicity tests it is the harm to the cells.

compound,value
COc1cc(-c2cc(OC)c3c(c2)OCO3)ccc1O,53.83%
O=c1c2cc(O)c(O)cc2oc2cc(O)cc(O)c12,100%
CC(C)(O)[C@H]1Cc2c(O)cc(-c3ccccc3)cc2O1,7.84%
COc1cc(O)cc2oc3cc(O)c(O)cc3c(=O)c12,29.94%
COc1ccc([C@@H]2Oc3ccc(C=O)cc3C2C)cc1OC,46.5%
COc1ccc(-c2cc(OC)c(O)c(OC)c2O)cc1,45.36%
C/C=C/c1ccc2c(c1)[C@H](C)[C@@H](c1ccc(O)c(OC)c1)O2,67.8%
O=C1c2c(O)cc(O)cc2O[C@H](c2ccc(O)cc2)[C@H]1c1c(O)cc(O)c2c(=O)cc(-c3ccc(O)c(O)c3)oc12,82.12%
COc1cc(-c2ccc(O)cc2)cc(OC)c1O,8.57%
COc1cc2c(cc1OC)C1Cc3ccc(OC)c(O)c3CN1CC2,31.6%
C/C(=C\C=C\[C@@H](C)[C@H]1CC[C@@]2(C)C3CC[C@H]4C(C)(C)C(=O)CC[C@]4(C)[C@@]3(O)[C@@H](O)C[C@]12C)C(=O)O,55.49%
Oc1cc(O)cc([C@H]2Oc3cc(O)cc(O)c3C[C@H]2O)c1,28.7%
O=c1c2cc(O)ccc2oc2cc(O)cc(O)c12,80.28%
COC(=O)/C(C)=C/C=C/[C@@H](C)C1CC[C@@]2(C)[C@@H]3CC[C@H]4C(C)(C)C(=O)CC[C@]4(C)C3=CC[C@]12C,78.84%
CC(C)=CCc1c(O)cc2oc3ccc(O)cc3c(=O)c2c1O,86.34%
C/C(=C\C=C\[C@@H](C)C1CC[C@@]2(C)[C@@H]3CC[C@H]4C(C)(C)C(=O)CC[C@]4(C)[C@@]3(O)CC[C@]12C)C(=O)O,87.39%
COc1cc2c(cc1OC)-c1c3c(cc4ccnc(c14)C2=O)OCO3,25.5%
COc1cc(OC)c2c(=O)c3c(O)c4c(c(OC)c3oc2c1O)OC(C)(C)C=C4,19.41%
CC(C)=CC[C@H]1C[C@@]2(C[C@H]3CCC(C)(C)C=C3C)C(=O)[C@](C(=O)c3ccccc3)(C(=O)C3=C2OC(C)(C)CC3)C1(C)C,12.1%

A second listing of 3 rows from above:

compound | value
CC(C)=CC[C@H]1C[C@@]2(C[C@H]3CCC(C)(C)C=C3C)C(=O)[C@](C(=O)c3ccccc3)(C(=O)C3=C2OC(C)(C)CC3)C1(C)C | 12.1%
C/C=C/c1ccc2c(c1)[C@H](C)[C@@H](c1ccc(O)c(OC)c1)O2 | 67.8%
O=C1c2c(O)cc(O)cc2O[C@H](c2ccc(O)cc2)[C@H]1c1c(O)cc(O)c2c(=O)cc(-c3ccc(O)c(O)c3)oc12 | 82.12%